Measured values: PubChem BioAssay AID1272365 (Small Molecule Screening Facility, UW Madison, 2020)
The entries are a selection whose mix differs from that of the whole data set. Calls of active or inactive are those of the source. Rule as the data show it: active = inhibition mostly above about 37% (no sharp cut-off); inactive = mostly below about 20%.

What follows are compounds tested on PriA–SSB C-terminal tail interaction (Klebsiella pneumoniae) (assay: inhibitors of Klebsiella pneumoniae PriA binding to SSB C-terminal tail, primary screen, biochemical, AlphaScreen (AID 1272365;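 also: plate controls were negative control peptide for no effect and reference peptide for full effect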)). Conditions: AlphaScreen SSBct-PriA binding, biotinylated peptide; at 33 µM; hits give high values.

SMILES | inhibition
COc1cc(C(=O)NCC2(N3CCCCC3)CCCCC2)ccc1OC(F)F | inactive: 6.9%
O=C(NCC1(N2CCOCC2)CCCCC1)c1cc(=O)[nH]c2ccccc12 | inactive: -22.3%
CN1CCN(CCOC(=O)C(O)(c2ccccc2)c2ccccc2)CC1 | inactive: 3.93%
COc1ccc(NC2CCN(C(=O)OC(C)(C)C)CC2)cc1 | inactive: 7.48%
CC(C)c1ccc(C(=O)NCC2(N3CCOCC3)CCCCC2)cc1 | inactive: 4.26%
O=C(NCC1(N2CCCCC2)CCCCC1)c1cccc(C(F)(F)F)c1 | inactive: -3.9%
N#CC1(Nc2ccccc2)CCN(CCc2ccccc2)CC1 | inactive: 4.04%
CCN1CCC(Nc2ccc(Cl)cc2)CC1 | inactive: -10.2%
CSc1ccc(C(=O)NCC2(N3CCOCC3)CCCCC2)cc1 | inactive: -6.28%
O=C(NCC1(N2CCCCC2)CCCCC1)c1cccc([N+](=O)[O-])c1 | inactive: -8.38%
O=C(NCC1(N2CCCCC2)CCCCC1)c1ccc(OC(F)F)cc1 | inactive: -4.78%
CCCOc1ccc(C(=O)NCC2(N(C)C)CCCCC2)cc1OC | inactive: -18.7%
O=C(NCC1(N2CCCCC2)CCCCC1)c1cncc(Br)c1 | inactive: -10.6%
CN1CCC(Nc2cccc(F)c2)CC1 | inactive: -10.4%
O=C(NCC1(N2CCOCC2)CCCCC1)c1cc(F)c(F)cc1Cl | inactive: 1.52%
COc1cc(OC)c(C(=O)NCC2(N(C)C)CCCCC2)cc1OC | inactive: 2.88%
CC(C)c1ccc(NC2CCN(C(=O)OC(C)(C)C)CC2)cc1 | inactive: 27.1%
CN(C)c1cccc(C(=O)NCC2(N3CCCCC3)CCCCC2)c1 | inactive: -6.5%
COc1ccc(CN(CCCl)CCCl)cc1Cl | inactive: -7.85%
COc1ccc(Cl)cc1C(=O)NCC1(N2CCOCC2)CCCCC1 | inactive: -4.16%
O=C(OC1CN2CCC1CC2)C1c2ccccc2Oc2ccccc21 (stereo not drawn) | inactive: 0.68%
N#CC1(Nc2ccccc2)CCN(Cc2ccccc2)CC1 | inactive: -18.6%
O=C(NCC1(N2CCCCC2)CCCCC1)c1ccc(Cl)s1 | inactive: -3.54%
CCOC(=O)N1CCC(Nc2ccc(OC)cc2)CC1 | inactive: -3.35%
Cc1cc(C)cc(N(C(=O)c2ccccc2)C2CCN(C(=O)OC(C)(C)C)CC2)c1 | inactive: -0.69%

SMILES | inhibition
O=C(NCC1(N2CCCCC2)CCCCC1)c1ccc(Cl)nc1 | inactive: -2.45%
O=C(NCC1(N2CCOCC2)CCCCC1)c1cc2ccccc2o1 | inactive: -12.2%
Cc1cccc(NC2(C#N)CCN(Cc3ccccc3)CC2)c1 | inactive: -9.36%
CSc1ccccc1C(=O)NCC1(N2CCCCC2)CCCCC1 | inactive: 4.51%
COc1ccc(C(=O)NCC2(N3CCCCC3)CCCCC2)c(OC)c1OC | inactive: -8.75%
CC(C)(C)OC(=O)N1CCC(N(C(=O)c2ccccc2)c2ccc(F)cc2)CC1 | inactive: -1.31%
COc1ccc(C(=O)NCC2(N3CCCCC3)CCCCC2)cc1 | inactive: -2.5%
O=C(NCC1(N2CCCCC2)CCCCC1)c1cccs1 | inactive: 7.94%
O=C(NCC1(N2CCCCC2)CCCCC1)c1ccc(=O)[nH]c1 | inactive: -6.05%
COc1cc(C(=O)NCC2(N(C)C)CCCCC2)ccc1OC(F)F | inactive: -2.45%
CCOC(=O)N1CCC(Nc2cccc(C)c2)CC1 | inactive: 15%
COc1ccc(NC2CCN(CCc3ccccc3)CC2)c(OC)c1 | inactive: 24.2%
CCOC(=O)N1CCC(Nc2ccc(F)cc2)CC1 | inactive: -0.77%
O=C(NCC1(N2CCCCC2)CCCCC1)c1ccc(F)cc1 | inactive: -3.16%
O=P1(N(CCCl)CCCl)SCCCS1 | inactive: -8.68%
CCCCOc1ccc(C(=O)NCC2(N3CCOCC3)CCCCC2)cc1 | inactive: -9.09%
O=C1CCN(Cc2ccccc2)CC1 | inactive: -17.8%
CCOc1ccc(C)cc1CN(CCCl)CCCl | inactive: -8.76%
Cn1c(=O)[nH]cc(N(CCCl)CCCl)c1=O | inactive: -3%
CN(C)c1ccc(C(=O)NCC2(N3CCCCC3)CCCCC2)cc1 | inactive: -0.62%
O=C(NCC1(N2CCCCC2)CCCCC1)c1ccco1 | inactive: -2.5%
CCN1CCC(Nc2cccc(F)c2)CC1 | inactive: -3.11%
Cc1ccccc1NC1(C#N)CCN(Cc2ccccc2)CC1 | inactive: -3.7%
Fc1ccccc1NC1CCN(Cc2ccccc2)CC1 | inactive: -13.2%
Cc1ccc(C(=O)NCC2(N3CCCCC3)CCCCC2)o1 | inactive: 4.76%

SMILES | inhibition
Cc1ccc(NC2(C#N)CCN(Cc3ccccc3)CC2)cc1 | inactive: -6.39%
CC(=O)N(c1ccccc1)C1CCNCC1 | inactive: -9.83%
COc1cc(OC)cc(C(=O)NCC2(N3CCCCC3)CCCCC2)c1 | inactive: -4.49%
CN1CCC(Nc2ccc(Cl)cc2)CC1 | inactive: -18.2%
COc1cc(OC)cc(C(=O)NCC2(N3CCOCC3)CCCCC2)c1 | inactive: -8.34%
COc1cccc(C(=O)N(c2cc(C)cc(C)c2)C2CCN(C(=O)OC(C)(C)C)CC2)c1 | inactive: -5.24%
O=C(O)C1(Nc2ccccc2)CCN(Cc2ccccc2)CC1 | inactive: 3.03%
CC(C)(C)OC(=O)N1CCC(Nc2ccccc2)CC1 | inactive: -2.89%
CCCOc1ccc(C(=O)NCC2(N(C)C)CCCCC2)cc1 | inactive: -1.45%
CN1CCC(Nc2ccc(F)c(Cl)c2)CC1 | inactive: -9.47%
CCOc1ncccc1C(=O)NCC1(N2CCOCC2)CCCCC1 | inactive: -2.43%
O=C(OC1CN2CCC1CC2)C1c2ccccc2C=Cc2ccccc21 (stereo not drawn) | inactive: -2.62%
CCc1cc(C(=O)NCC2(N3CCCCC3)CCCCC2)sc1C | inactive: 0.57%
CCOC(=O)N1CCC(Nc2ccc(C)cc2)CC1 | inactive: 2.11%
COc1ccc(C(=O)NCC2(N3CCOCC3)CCCCC2)cc1OC | inactive: 0.64%
COc1cc(C(=O)NCC2(N3CCOCC3)CCCCC2)cc(OC)c1C | inactive: -7.22%
O=C(NCC1(N2CCOCC2)CCCCC1)c1cc(Br)ccc1Cl | inactive: 4.18%
CN(C)C1(CNC(=O)c2cccc(C#N)c2)CCCCC1 | inactive: 3.73%
CCCN1CCC(Nc2cc(OC)cc(OC)c2)CC1 | inactive: 0.83%
Cc1cc(N(CCCl)CCCl)ccc1C=O | inactive: -14.7%
c1ccc(CN2CCC(Nc3ccccc3)CC2)cc1 | inactive: 1.07%
N#Cc1ccc(C(=O)NCC2(N3CCCCC3)CCCCC2)cc1 | inactive: -6.14%
CC(C)(C)OC(=O)N1CCC(N(C(=O)c2ccccc2)c2ccc(Cl)cc2)CC1 | inactive: 4.24%
